Measured values from several laboratories, pooled; numbers as filed in NIAID ChemDB.

Shared fields: tests in culture; organism: HIV-1; cells: C8166; endpoint: EC50

An empty or dashed field is not shown. Neighbouring rows are from separate reports. ECn is the concentration giving n% inhibition of infection, replication or growth. a–b is a range or a potency band.

| smiles | strain | changes | method | value |
|---|---|---|---|---|
| CCCC(C(=O)O)c1c(-c2ccc(Cl)cc2)c2cc(Cl)ccc2n(C)c1=O | - | - | luciferase / reporter gene | <20 µM |
| CCN1c2ncc(CCOc3ccc(C4CC4C(=O)O)c4ccccc34)cc2C(=O)N(C)c2ccc(F)nc21 | WT | - | p24 | <0.1 µM |
| CC1(C)C=Cc2c(cc(O)c3c(=O)cc(-c4ccc(O)cc4)oc23)O1 | IIIB | - | ELISA | 27.9 µM |
| NCCCC[C@H](NC(=O)[C@H](CCCCN)NC(=O)[C@H](CCCCN)NC(=O)c1ccccc1)C(N)=O | IIIB | - | p24 | 200 µM |
| C=C(C)[C@@]1(OC(=O)c2ccccc2)[C@H](OC(C)=O)[C@@H]2[C@H](OC(C)=O)[C@@]3(C)O[C@@]4([C@@H]3OC(C)=O)[C@@H](OC(C)=O)[C@@H](C)C[C@H]4[C@@]2(O)[C@H](C)[C@@H]1OC(C)=O | - | - | MTT | 78.8 µg/mL |
| CCN1c2ncc(CCOc3ccc(-c4ccc(CC(=O)O)cc4)cc3C)cc2C(=O)Nc2c(C)ccnc21 | IIIB | - | p24 | 0.01–0.05 µM |
| Cc1nc2ccc(Cl)cc2c(-c2ccc(Cl)cc2)c1C(OC(C)(C)CCl)C(=O)O | - | - | luciferase / reporter gene | <20 µM |
| NC(=O)[C@H](CCCCNC(=O)CCC(=O)O)NC(=O)[C@H](CCCCNC(=O)CCC(=O)O)NC(=O)[C@H](CCCCNC(=O)CCC(=O)O)NC(=O)c1ccccc1 | IIIB | - | p24 | 100 µM |
| CCN1c2ncc(CCOc3ccc(C(=O)O)c4c3CCC4)cc2C(=O)N(C)c2cccnc21 | - | RT-K103N Y181C | p24 | <0.1 µM |
| C=CC(C)(C)C1C2=C(C=CC(C)(C)O2)C(OC)=C2C=CC(=O)OC21 | IIIB | - | ELISA | 9.5 µM |
| O=C(N[C@@H](CCCCNC(=O)c1cccc(O)c1C(=O)O)C(=O)OCc1ccccc1)OCc1ccccc1 | IIIB | - | p24 | 50 µM |
| CC1(C)OC2=CC(=O)C3C(=O)C=C(c4ccc(O)cc4)OC3C2=C(O)C1O | IIIB | - | ELISA | 0.9 µM |
| CCN1c2ncc(CCOc3ccc(-c4ccc(CC(=O)O)cc4F)cc3C)cc2C(=O)N(C)c2cccnc21 | - | RT-K103N Y181C | p24 | 0.01–0.05 µM |
| CCCC(C(=O)O)c1c(-c2ccc(Cl)cc2)c2cc(Cl)ccc2[nH]c1=O | - | - | luciferase / reporter gene | <20 µM |
| O=C(CCCCCNC(=O)[C@H](CCCCNC(=O)c1cccc(O)c1C(=O)O)NC(=O)OCc1ccccc1)N[C@@H](CCCCNC(=O)c1cccc(O)c1C(=O)O)C(=O)OCc1ccccc1 | IIIB | - | p24 | 10 µM |
| CC1(C)Oc2cc(O)c3c(=O)cc(-c4ccc(O)cc4)oc3c2C(O)C1O | IIIB | - | ELISA | 8.6 µM |
| CCN1c2ncc(CCOc3ccc(CCC(=O)O)c4ccccc34)cc2C(=O)N(C)c2ccc(Cl)nc21 | - | RT-K103N Y181C | p24 | <0.1 µM |
| CCN1c2ncc(CCOc3ccc(C(=O)NNCC(=O)O)cc3C)cc2C(=O)N(C)c2cccnc21 | IIIB | - | p24 | 0.01–0.05 µM |
| CCN1c2ncc(CCOc3ccc(CCC(=O)O)c4ccccc34)cc2C(=O)N(C)c2ccc(F)nc21 | WT | - | p24 | <0.1 µM |
| CCOC1c2c(cc(O)c3c(=O)cc(-c4ccc(O)cc4)oc23)OC(C)(C)C1O | IIIB | - | ELISA | 6.7 µM |
| NC(=O)c1cc2c([nH]c3ccccc32)c(-c2ccc(CO)o2)n1 | IIIB | - | p24 | 1.45 µM |
| CCN1c2ncc(CCOc3ccc(-c4ccc[n+]([O-])c4)cc3C)cc2C(=O)N(C)c2cccnc21 | IIIB | - | p24 | <0.01 µM |
| CCCC(C(=O)O)c1c(CC)nc2ccc(Cl)cc2c1-c1ccc(Cl)cc1 | - | - | luciferase / reporter gene | <20 µM |
| NC(=O)[C@H](CCCCNC(=O)c1c(O)cccc1C(=O)O)NC(=O)[C@H](CCCCNC(=O)c1cccc(O)c1C(=O)O)NC(=O)[C@H](CCCCNC(=O)c1cccc(O)c1C(=O)O)NC(=O)c1ccccc1 | IIIB | - | p24 | 62 µM |
| CCCC(C(=O)O)c1c(-c2ccc(Cl)cc2)c2cc(Cl)ccc2n(CC2CC2)c1=O | - | - | luciferase / reporter gene | <20 µM |
| Cc1cn([C@H]2C[C@H](N=[N+]=[N-])[C@@H](CO)O2)c(=O)[nH]c1=O | - | - | MTT | 0.004 µg/mL |
| CCCC(C(=O)O)c1c(-c2ccc(Cl)cc2)c2cc(Br)ccc2[nH]c1=O | - | - | luciferase / reporter gene | <20 µM |
| CCN1c2ncc(CCOc3ccc(/C=C(\C)C(=O)O)c4ccccc34)cc2C(=O)N(C)c2cccnc21 | WT | - | p24 | <0.1 µM |
| CCN1c2ncc(CCOc3ccc(-c4csc(N)n4)cc3C)cc2C(=O)N(C)c2cccnc21 | IIIB | - | p24 | <0.01 µM |
| CCCC(C(=O)O)c1c(C)nc2ccc(Cl)cc2c1-c1cccs1 | - | - | luciferase / reporter gene | <20 µM |
| CCN1c2ncc(CCOc3ccc(CCC(=O)O)c4c3CCCC4)cc2C(=O)N(C)c2cccnc21 | WT | - | p24 | <0.1 µM |
| O=C(O)/C=C(/CC(=O)O)C(=O)NCCCC[C@H](NC(=O)OCc1ccccc1)C(=O)OCc1ccccc1 | IIIB | - | p24 | 40 µM |
| O=c1ccc2ccc3c(c2o1)CCO3 | IIIB | - | ELISA | 336.3 µM |
| CCN1c2ncc(CCOc3ccc4cc(CC(=O)NN)ccc4c3)cc2C(=O)N(C)c2cccnc21 | - | RT-K103N Y181C | p24 | <0.1 µM |
| CC1(C)O[C@H]2CC(=O)OC[C@]23[C@H]2CC[C@@]4(C)[C@H](c5ccoc5)OC(=O)[C@H]5O[C@]54[C@]2(C)C(=O)C[C@@H]13 | IIIB | - | ELISA | >340.4 µM |
| CCN1c2ncc(CCOc3ccc(CCC(=O)O)c4c3CCCC4)cc2C(=O)N(C)c2ccc(Cl)nc21 | - | RT-K103N Y181C | p24 | <0.1 µM |

For reference, 2 entries again:

smiles	strain	changes	method	value
NC(=O)[C@H](CCCCNC(=O)CCC(=O)O)NC(=O)[C@H](CCCCNC(=O)CCC(=O)O)NC(=O)[C@H](CCCCNC(=O)CCC(=O)O)NC(=O)c1ccccc1	IIIB	-	p24	100 µM
C=CC(C)(C)C1C2=C(C=CC(C)(C)O2)C(OC)=C2C=CC(=O)OC21	IIIB	-	ELISA	9.5 µM